Source: PubChem BioAssay AID1259414 (Drosophila RNAi Screening Center, 2018)

Purpose: 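Fly genes that alter Wolbachia amount inside host cells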 (primary screen)
Cells: Drosophila JW18 cells infected with Wolbachia
Knock-down reagent: long dsRNA against Drosophila genes, 0.25 µg dsRNA per well of a 384-well plate
Time to read-out: 5 days
Challenge: cells persistently infected with Wolbachia before knock-down; no added drug
Detection: 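Imaged fluorescence in situ signal for Wolbachia 23S rRNA per DAPI-counted host cell, given as a robust z-score within each plate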
Reading the numbers: Wolbachia per cell robust z: higher = more Wolbachia per host cell than the plate typical
Active means: 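Hit when robust z is 1.5 or more, or -1.5 or less, in at least two of three replicates; excludes dsRNAs with several or no targets, genes not expressed in JW18 and well A1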
The screen tested about 24,000 reagents; below is a random part of those that have a named target and a result. Of all reagents, about 1,210 (5%) were called active. 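Inactive calls also include excluded dsRNAs with several or no targets, genes unexpressed in JW18, and well A1, regardless of score.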 Names joined by + are all predicted targets of the reagent. Reagent sequences are not shown.

no.	gene	dsRNA	Wolbachia per cell robust z, rep 1	Wolbachia per cell robust z, rep 2	Wolbachia per cell robust z, rep 3	outcome
1	Acbp3 (GeneID 38783)	DRSC11022	-2.41	-0.207	-1.07	inactive
2	Acbp3 (GeneID 38783)	DRSC25356	-0.0204	0.12	0.161	inactive
3	Golgin84 (GeneID 42905)	DRSC15269	-0.0603	-0.286	-0.138	inactive
4	bsk (GeneID 44801)	DRSC03499	0.788	-0.213	0.501	inactive
5	bsk (GeneID 44801)	DRSC40727	0.49	1.22	1.97	inactive
6	Hsf (GeneID 37068)	DRSC07443	-5.07	0.446	-1.74	active
7	Hsf (GeneID 37068)	DRSC27700	-0.4	0.625	-0.24	inactive
8	Jarid2 (GeneID 39103)	DRSC10372	0.263	-5.91	-0.103	inactive
9	CG10077 (GeneID 38756)	DRSC09691	0.405	-1.62	0.618	inactive
10	CG10077 (GeneID 38756)	DRSC24756	-1	-0.0583	-0.1	inactive
11	CG33689 (GeneID 3771798)	DRSC38838	-0.143	0.452	-0.242	inactive
12	clt (GeneID 117300)	DRSC04621	-0.18	-0.926	0.345	inactive
13	CG43777 + CG43776 + CG43775	DRSC04206	0.233	0.545	0.163	inactive
14	udt (GeneID 42809)	DRSC14214	0.818	0.0528	0.699	inactive
15	PQBP1 (GeneID 43004)	DRSC14393	-0.204	0.74	0.0422	inactive
16	CG30195 (GeneID 37592)	DRSC04155	-0.596	-6.39	0.0708	inactive
17	pwn (GeneID 44011)	DRSC06035	0.891	0.582	1.45	inactive
18	pwn (GeneID 44011)	DRSC25224	-0.356	0.703	-0.645	inactive
19	CG33170 (GeneID 326267)	DRSC22366	0.87	0.21	0.57	inactive
20	Cyp313a3 (GeneID 41488)	DRSC16626	0.201	0.607	-5.02	inactive
21	CG14628 (GeneID 31057)	DRSC18626	0.725	-0.272	0.563	inactive
22	Ekar (GeneID 43806)	DRSC17161	-1.71	-0.315	-0.673	inactive
23	Ekar (GeneID 43806)	DRSC24931	-0.191	-0.549	-0.368	inactive

Next part (3 carried over from the part before).
no.	gene	dsRNA	Wolbachia per cell robust z, rep 1	Wolbachia per cell robust z, rep 2	Wolbachia per cell robust z, rep 3	outcome
21	CG14628 (GeneID 31057)	DRSC18626	0.725	-0.272	0.563	inactive
22	Ekar (GeneID 43806)	DRSC17161	-1.71	-0.315	-0.673	inactive
23	Ekar (GeneID 43806)	DRSC24931	-0.191	-0.549	-0.368	inactive
24	SMC1 (GeneID 42853)	DRSC16846	-0.173	0.759	-0.263	inactive
25	CG17196 (GeneID 43112)	DRSC15189	1.18	-2.21	-5.98	inactive
26	Ssl2 (GeneID 43424)	DRSC14395	0.908	-1.65	-0.284	inactive
27	Ssl2 (GeneID 43424)	DRSC22796	0.309	-1.13	0.13	inactive
28	phtf (GeneID 35583)	DRSC05023	-5.27	0.573	0.548	inactive
29	phtf (GeneID 35583)	DRSC28441	-1.88	-1.18	-0.573	inactive
30	CG17266 (GeneID 35571)	DRSC04979	0.719	0.911	0.646	inactive
31	CG17266 (GeneID 35571)	DRSC22368	0.833	-1.37	-0.652	inactive
32	CG17266 (GeneID 35571)	DRSC24207	-0.164	-0.97	0.323	inactive
33	CG16736 (GeneID 41101)	DRSC15145	-3.75	0.824	0.708	inactive
34	Elp2 (GeneID 36123)	DRSC06095	-0.381	-0.164	-7.25	inactive
35	CG11162 (GeneID 32325)	DRSC19391	0.509	0.842	-0.832	inactive
36	CG11162 (GeneID 32325)	DRSC22538	0.946	0.701	-0.589	inactive
37	CG16935 (GeneID 36540)	DRSC06638	-1.24	1.81	0.832	inactive
38	CG8892 (GeneID 33719)	DRSC03121	0.468	-0.507	1.59	inactive
39	CG16820 (GeneID 34730)	DRSC02522	-0.988	-1.24	-0.453	inactive
40	Mlc-c (GeneID 31474)	DRSC18683	0.405	0.884	-5.86	inactive
41	Mlc-c (GeneID 31474)	DRSC26543	-2.43	-0.811	-0.776	inactive
42	Zip48C (GeneID 36273)	DRSC06314	0.687	1.23	0.00201	inactive
43	CG30177 (GeneID 246500)	DRSC22680	-0.912	-0.361	0.197	inactive
44	CG5906 (GeneID 39343)	DRSC10557	1.07	0.315	0.217	inactive
45	CG9106 (GeneID 32454)	DRSC20154	-4.79	-7.51	0.662	inactive
46	CG9106 (GeneID 32454)	DRSC24212	1.03	3.51	1.12	inactive
